A mixed list of measured activities; the numbers were collected in NIAID ChemDB.

Shared fields: tests in culture; species: Mycobacterium tuberculosis

Lines come from different laboratories, so protocols vary.

compound	read by	tested at	strain or isolate	endpoint	cells	conditions	changes	result
Cc1c(F)cc2c(=O)c(C(=O)O)cn3c2c1CCC3C			100 strains	MIC50				3.2 µg/mL
CN(C)C(=S)SCN1C(=O)c2ccccc2C1=O	BACTEC		H37Rv	MIC bound				≤128 µg/mL
CC[C@H]1OC(=O)[C@H](C)[C@@H](O[C@H]2C[C@@](C)(OC)[C@@H](OC(C)=O)[C@H](C)O2)[C@H](C)[C@@H](O[C@@H]2O[C@H](C)C[C@H](N(C)C)[C@H]2O)C(C)(O)C[C@@H](C)/C(=N\OCCCC2CCCCC2)[C@H](C)[C@@H](O)[C@]1(C)O			1 (rifimpin isoniazid-susceptible)	MIC				3.13 µg/mL
Cc1ccc2c(=O)n(-c3cccc([N+](=O)[O-])c3)c(=O)oc2c1			CNCTC MY331/88	MIC				4 µM
CC1CC(C)CN(c2nc(Nc3ccc(C#N)c(C(F)(F)F)c3)nc(Oc3cccc4cccnc34)n2)C1	BACTEC		H37Rv	MIC99				6.25 µg/mL
Cc1ccccc1CNCC1CCCC(CNCc2ccccc2C)C1		20 µM	H37Rv	inhibition				0%
COC(=O)CNC(=O)c1cc(-c2ccc(Cl)cc2)n(-c2ccc(Cl)cc2)n1	absorbance		H37Rv	MIC				50 µg/mL
COc1ccccc1/C=N/N=C(/N)c1ccccn1			1814 (THC-resistant)	MIC				32 µg/mL
Cc1ccc2oc(=O)n(-c3ccc([N+](=O)[O-])cc3)c(=O)c2c1			CNCTC MY331/88	MIC				4 µM
CO[C@H]1/C=C/O[C@@]2(C)Oc3c(C)c(O)c4c(O)c(c5c(c4c3C2=O)NC2(CCN(CC(C)C)CC2)N=5)=NC(=O)/C(C)=C\C=C\[C@H](C)[C@H](O)[C@@H](C)[C@@H](O)[C@@H](C)[C@H](OC(C)=O)[C@@H]1C			Strain 2 (INH-resistant)	MIC				0.006 µg/mL
CCOC(=O)c1ccc(-n2c(=O)oc3cc(C)ccc3c2=O)cc1			CNCTC MY331/88	MIC				8 µM
CO[C@H]1/C=C/O[C@@]2(C)Oc3c(C)c(O)c4c(O)c(c(/C=N/N5CCN(C)CC5)c(O)c4c3C2=O)NC(=O)/C(C)=C\C=C\[C@H](C)[C@H](O)[C@@H](C)[C@@H](O)[C@@H](C)[C@H](OC(C)=O)[C@@H]1C	resazurin		H37Rv	MIC			Rifampicin-resistant (rRMP)	>2 µM
Cc1cc2oc(=O)c(C3=NNC(c4ccccc4-c4ccccn4)C3)c(O)c2cc1C	agar		H37Rv	MIC90				>6.25 µg/mL
CCCCNC(=S)NNc1ccc([N+](=O)[O-])cn1	BACTEC		H37Rv	MIC bound				>12.5 µg/mL
O=c1oc2c([N+](=O)[O-])cccc2cc1-c1cn2ccccc2n1	BACTEC	6.25 µg/mL	H37Rv	inhibition				21%
N#Cc1ccc(Nc2nc(Oc3cccc4cccnc34)nc(N3CCN(c4cccc(C(F)(F)F)c4)CC3)n2)cc1C(F)(F)F	BACTEC		H37Rv	MIC99				6.25 µg/mL
O=C(CCC(F)(F)F)N1CCC(c2cncc(Cl)c2)C1	fluorescence		H37Rv	EC50	THP-1			1–10 µM
N#Cc1ccc(Nc2nc(Oc3cccc4cccnc34)nc(N3CCN(c4ncccn4)CC3)n2)cc1C(F)(F)F	BACTEC		H37Rv	MIC				>6.25 µg/mL
c1ccc2c(c1)n1[se]n21			H37Rv	MIC				457.5 µg/mL
Fc1cccc(F)c1CNCC1CCCC(CNCc2c(F)cccc2F)C1		20 µM	H37Rv	inhibition				0%
O=C(CCC(F)(F)F)N1CCC(c2cccnc2C(F)(F)F)CC1	fluorescence		H37Rv	EC50	THP-1			1–10 µM
Cc1ccc(/C=N/N=C(/N)c2ccccn2)c(C)c1			H37Rv	MIC				16 µg/mL
C[Si](C)(C)CCNC(=O)c1nn(-c2ccc(Cl)cc2Cl)c(-c2ccc(Cl)cc2)c1CO	absorbance		H37Rv	MIC				>100 µg/mL
CCN(CC)CCCn1c2cc(=O)c(=O)cc-2[nH]c2cc(C)ccc21	BACTEC		H37Rv	MIC bound				>12.5 µg/mL
CN1CCN(c2ccc(CNCC3CCCC(CNCc4ccc(N5CCN(C)CC5)cc4)C3)cc2)CC1		20 µM	H37Rv	inhibition				0%
NC(=O)CSSCC(N)=O	BACTEC		H37Rv	MIC bound				≤12.5 µg/mL
CCCCCCCCCCCC(=O)NNC(=O)c1ccncc1			BCG	MIC				0.05 µg/mL
Cc1ccn2cc(-c3cc4cc(Br)ccc4oc3=O)nc2c1	BACTEC	6.25 µg/mL	H37Rv	inhibition				3%
CCC12N=C(N(C)C)CC1(O)ON=C2C	BACTEC		H37Rv	MIC				≥128 µg/mL
CN[C@H](CC(C)C)C(=O)N[C@H]1C(=O)N[C@@H](CC(N)=O)C(=O)N[C@H]2C(=O)N[C@H]3C(=O)N[C@H](C(=O)N[C@H](C(=O)O)c4cc(O)cc(O)c4-c4cc3ccc4O)[C@H](O)c3ccc(c(Cl)c3)Oc3cc2cc(c3O[C@@H]2O[C@H](CO)[C@@H](O)[C@H](O)[C@H]2O[C@H]2C[C@](C)(N)[C@H](O)[C@H](C)O2)Oc2ccc(cc2Cl)[C@H]1O			24 strains	MIC50				25 µg/mL
O=C(CCC(F)(F)F)N1CCC(F)(c2ccnc(C(F)(F)F)c2)CC1	fluorescence		H37Rv	EC50	THP-1			<0.05 µM
CC1(C)CC(=O)C2=C(C1)OC1=C(C(=O)CC(C)(C)C1)[Se]2=O			H37Rv	MIC				55.46 µg/mL
Cc1ccc(NC(=O)c2ncccc2S)cc1			CNCTC MY 331/8	MIC				16 µM
CCSC1OC(C(COC(C)=O)OC(C)=O)C(OC(C)=O)C1NC(=O)OCc1ccccc1	BACTEC	12.5 µg/mL	H37Rv	inhibition				2%
O=c1oc2ccccc2cc1-c1cn2cc(Br)ccc2n1	BACTEC		H37Rv	MIC				>6.25 µg/mL
Cc1c(C(=O)N(C)C)nn(-c2ccc(Cl)cc2Cl)c1-c1ccc(Cl)cc1	absorbance		H37Rv	MIC				50 µg/mL
OC(c1cc(-c2ccc(C(F)(F)F)cc2)nc(-c2ccc(C(F)(F)F)cc2)c1)C1CCCCN1	BACTEC		H37Rv	MIC				0.5 µg/mL
O=c1oc2c(Cl)cc(Cl)cc2cc1-c1cn2ccccc2n1	BACTEC	6.25 µg/mL	H37Rv	inhibition				10%
Cc1ccc(/C=N/N=C(/N)c2ccccn2)cc1			H37Rv	MIC				16 µg/mL
Nn1c(=O)[nH]c2ncn(Cc3ccccc3)c2c1=O	resazurin	6.25 µg/mL	H37Rv	inhibition				-17%
Cc1cc2oc(=O)c(C3=NNC(c4ccc(C(F)(F)F)cc4)C3)c(O)c2cc1C	agar		INHR-MTB	MIC90			Isoniazid-resistant	>6.25 µg/mL
COc1ccc(-n2c(=O)oc3ccc(Cl)cc3c2=O)cc1			CNCTC MY331/88	MIC				62 µM
NNC(=O)c1ccncc1	resazurin		H37Rv	MIC		pH 6		0.2 µM
NNC(=O)Cc1c[nH]c2ccccc12			BCG	MIC				60 µg/mL
C/C(=N/NC(=S)NCc1ccccc1)c1nccnc1C			INH-r	MIC				1.6 µg/mL
N/C(=N/N=C/c1ccc(Cl)cc1)c1ccccn1			H37Rv	MIC				64 µg/mL
C=C1C(=O)OC2/C=C(/C)CC(O)/C=C(/CO)CC(OC(=O)/C(C)=C/C)C12	BACTEC	12.5 µg/mL	H37Rv	inhibition				-15%
COc1cccc2cc(-c3cn4ccccc4n3)c(=O)oc12	BACTEC		H37Rv	MIC				>6.25 µg/mL
Cc1ccc(NC(=O)c2ncccc2O)cc1			CNCTC MY 331/8	MIC				125 µM
N/C(=N\N=C\c1ccc(Cl)c([N+](=O)[O-])c1)c1ccccn1			H37Rv	MIC				500 µg/mL
O=[N+]([O-])/C=C/c1cc2c(ccc3ccccc32)[nH]1	resazurin	6.25 µg/mL	H37Rv	inhibition				98%
CCOC(=O)c1cn(Cc2nn(-c3ccc(Cl)cc3Cl)c(-c3ccc(Cl)cc3)c2C)nn1	absorbance		H37Rv	MIC				>100 µg/mL
COc1cccc(C2CC(c3c(O)c4cc(C)c(C)cc4oc3=O)=NN2c2ccccc2)c1O	agar		INHR-MTB	MIC90			Isoniazid-resistant	>6.25 µg/mL
COC(=O)C(=O)NNc1ccc([N+](=O)[O-])cc1			BCG	MIC				0.03 µg/mL
N/C(=N/N=C/c1cccc(Br)c1)c1ccccn1			1454 (THC-resistant)	MIC				64 µg/mL
CCCCNC(=S)N[C@@H]1O[C@H](CO)[C@@H](O)[C@H](O)[C@H]1O	resazurin		H37Rv	MIC bound				>6.25 µg/mL
O=c1oc2ccc(Cl)cc2c(=O)n1-c1ccc(C(F)(F)F)cc1			CNCTC MY331/88	MIC				1 µM
O=c1oc2c([N+](=O)[O-])cccc2cc1-c1cn2ccc(Br)cc2n1	BACTEC	6.25 µg/mL	H37Rv	inhibition				0%
Cc1cc2oc(=O)c(C3=NNC(c4ccc(Cl)cc4Cl)C3)c(O)c2cc1C	agar		H37Rv	MIC90				>6.25 µg/mL
COc1ccc2oc(=O)n(-c3cccc(Cl)c3)c(=O)c2c1			CNCTC MY331/88	MIC				62.5 µM
CCOC(=O)c1cnc2c(ccc3[nH]cccc32)c1=O	BACTEC		H37Rv	MIC bound				>12.5 µg/mL
O=C(NCc1ccc(Cl)c(Cl)c1)c1ncccc1O			CNCTC MY 331/8	MIC				62.5 µM
CCOC(=O)c1ccc(-n2c(=O)oc3ccc(F)cc3c2=O)cc1			CNCTC MY331/88	MIC				8 µM
C[Si]1(C)CCN(C(=O)c2nn(-c3ccc(Cl)cc3Cl)c(-c3ccc(Cl)cc3)c2CO)CC1	absorbance		H37Rv	MIC				>100 µg/mL
O=C(NCc1cccc([N+](=O)[O-])c1)c1ncccc1O			CNCTC MY 331/8	MIC				500 µM
Cc1cc2oc(=O)c(C3=NNC(c4ccc(O)cc4O)C3)c(O)c2cc1C	agar		INHR-MTB	MIC90			Isoniazid-resistant	32.1 µg/mL
Cc1ccccc1Nc1cc(Cl)nc(N)n1	BACTEC	12.5 µg/mL	H37Rv	inhibition				31%
N#Cc1ccc(-n2c(=O)oc3ccc(Br)cc3c2=O)cc1			CNCTC MY331/88	MIC				4 µM
O=C(Nc1ccc(C(F)(F)F)cc1)c1ncccc1O			CNCTC MY 331/8	MIC				62.5 µM
CC(=O)N1CCN(CCCCN2c3ccccc3Sc3cc(N=[N+]=[N-])ccc32)CC1	resazurin	6.25 µg/mL	H37Rv	inhibition				64%
COc1ccc(-n2c(=O)oc3ccc([N+](=O)[O-])cc3c2=O)cc1			CNCTC MY331/88	MIC				250 µM
O=C(NCc1ccc(C(F)(F)F)cc1)c1ncccc1O			CNCTC MY 331/8	MIC				125 µM
CNn1cc(C(=O)O)c(=O)c2cc(F)c(N3CCN(C)CC3)cc21			19 strains	MIC50				6.2 µg/mL
COc1c(OC(C)=O)cc2c(OC(C)=O)c1CC(C)CC(OC)C(O)C(C)/C=C(\C)C(OC(N)=O)C(OC)/C=C\C=C(/C)C(=O)N2	BACTEC		H37Rv	MIC				≥12.5 µg/mL
N/C(=N/N=C/c1ccc(Br)cc1)c1ccccn1			1062 (THC-resistant)	MIC				64 µg/mL
O=C(CCC(F)(F)F)N1CCC(F)(c2ccccn2)CC1	fluorescence		H37Rv	EC50	THP-1			<0.05 µM
CN1CCN(CCNc2ccc(CO)c3sc4ccccc4c(=O)c23)CC1	BACTEC		H37Rv	MIC bound				>12.5 µg/mL
O=[N+]([O-])c1ccc(CNCC2CCCC(CNCc3ccc([N+](=O)[O-])cc3)C2)cc1		20 µM	H37Rv	inhibition				0%
NC(=O)c1ccncc1			BCG	MIC				1000 µg/mL
O=C(O)c1[nH]c(=O)[nH]c(=O)c1F	BACTEC		H37Rv	MIC	VERO			3.13 µg/mL
N#Cc1ccc(Nc2nc(Oc3cccc4cccnc34)nc(N3CCCCC3)n2)cc1C(F)(F)F	BACTEC		H37Rv	MIC				>6.25 µg/mL
NC(N)=NNC(=S)S	BACTEC		H37Rv	MIC bound				≤128 µg/mL
COc1ccc(CN2CCN(c3nc(Nc4ccc(C#N)c(C(F)(F)F)c4)nc(Oc4cccc5cccnc45)n3)CC2)c(OC)c1OC	BACTEC		H37Rv	MIC				>6.25 µg/mL
CC1CCC(C)N1NNC(=O)c1ccncc1			BCG	MIC				10 µg/mL
COc1cc(/C=N/NC(=O)C[N+](C)(C)C)cc(OC)c1OC	BACTEC	12.5 µg/mL	H37Rv	inhibition				25%
O=C(NCc1ccc([N+](=O)[O-])cc1)c1ncccc1S			CNCTC MY 331/8	MIC				8 µM

For reference, 12 entries again:

compound | read by | tested at | strain or isolate | endpoint | cells | conditions | changes | result
O=c1oc2c([N+](=O)[O-])cccc2cc1-c1cn2ccc(Br)cc2n1 | BACTEC | 6.25 µg/mL | H37Rv | inhibition |  |  |  | 0%
O=C(CCC(F)(F)F)N1CCC(F)(c2ccccn2)CC1 | fluorescence |  | H37Rv | EC50 | THP-1 |  |  | <0.05 µM
OC(c1cc(-c2ccc(C(F)(F)F)cc2)nc(-c2ccc(C(F)(F)F)cc2)c1)C1CCCCN1 | BACTEC |  | H37Rv | MIC |  |  |  | 0.5 µg/mL
O=C(NCc1cccc([N+](=O)[O-])c1)c1ncccc1O |  |  | CNCTC MY 331/8 | MIC |  |  |  | 500 µM
O=[N+]([O-])/C=C/c1cc2c(ccc3ccccc32)[nH]1 | resazurin | 6.25 µg/mL | H37Rv | inhibition |  |  |  | 98%
Cc1c(C(=O)N(C)C)nn(-c2ccc(Cl)cc2Cl)c1-c1ccc(Cl)cc1 | absorbance |  | H37Rv | MIC |  |  |  | 50 µg/mL
CCCCNC(=S)N[C@@H]1O[C@H](CO)[C@@H](O)[C@H](O)[C@H]1O | resazurin |  | H37Rv | MIC bound |  |  |  | >6.25 µg/mL
Cc1ccc(NC(=O)c2ncccc2S)cc1 |  |  | CNCTC MY 331/8 | MIC |  |  |  | 16 µM
CCN(CC)CCCn1c2cc(=O)c(=O)cc-2[nH]c2cc(C)ccc21 | BACTEC |  | H37Rv | MIC bound |  |  |  | >12.5 µg/mL
O=C(CCC(F)(F)F)N1CCC(F)(c2ccnc(C(F)(F)F)c2)CC1 | fluorescence |  | H37Rv | EC50 | THP-1 |  |  | <0.05 µM
COC(=O)C(=O)NNc1ccc([N+](=O)[O-])cc1 |  |  | BCG | MIC |  |  |  | 0.03 µg/mL
N/C(=N\N=C\c1ccc(Cl)c([N+](=O)[O-])c1)c1ccccn1 |  |  | H37Rv | MIC |  |  |  | 500 µg/mL

ECn is the concentration giving n% inhibition of infection, replication or growth. Percent inhibition refers to the dose given; in toxicity tests it is the harm to the cells. Two numbers with a dash give a range or band. A number after MIC or MFC names an inhibition level or a share of isolates. An empty or dashed field is not shown. MIC bound comes from a single tested concentration.